This is a selection; strong and weak results do not stand in their true shares. Active and inactive are the calls of the source. Cut-off read from the data, not from the text of the source: active = fluorescence inhibition mostly above about 23% (no sharp cut-off); inactive = mostly below about 17%.

The nature of the test: hypoxia reporter signal reduction in M. tuberculosis – fluorescence, absorbance growth readout, primary screen (AID 1159583). Conditions: M. tuberculosis hypoxia-regulated fluorescent reporter, stronger effect = higher value, concentration not given here.
In the case of `COc1ccc(C(=O)NCC2(N3CCOCC3)CCCCC2)cc1OC`, the fluorescence inhibition was inactive: 11.4%.

With `COc1cc(C(=O)NCC2(N3CCOCC3)CCCCC2)cc(OC)c1C`, the fluorescence inhibition is active: 32.8%.

On to `O=C(NCC1(N2CCOCC2)CCCCC1)c1cc(Br)ccc1Cl`, for which the fluorescence inhibition was inactive: 3.13%.

For the compound `CCc1cc(C(=O)NCC2(N3CCCCC3)CCCCC2)sc1C`, the fluorescence inhibition is inactive: 7.85%.

In the case of `O=C(OC1CN2CCC1CC2)C1c2ccccc2C=Cc2ccccc21` (configuration not stated), the fluorescence inhibition is inactive: 19.6%.

With `CCOC(=O)N1CCC(Nc2ccc(C)cc2)CC1`, the fluorescence inhibition is inactive: 5.13%.

Take `N#Cc1ccc(C(=O)NCC2(N3CCCCC3)CCCCC2)cc1`: the fluorescence inhibition is inactive: 14.3%.

As for `CC(C)(C)OC(=O)N1CCC(N(C(=O)c2ccccc2)c2ccc(Cl)cc2)CC1`, the fluorescence inhibition is inactive: 6.12%.

For the compound `CN(C)C1(CNC(=O)c2cccc(C#N)c2)CCCCC1`, the fluorescence inhibition is inactive: 2.91%.

`CCCN1CCC(Nc2cc(OC)cc(OC)c2)CC1`: the fluorescence inhibition is inactive: 12.5%.

For the compound `Fc1ccccc1NC1CCN(Cc2ccccc2)CC1`, the fluorescence inhibition was inactive: -3.59%.

For `Cc1ccc(C(=O)NCC2(N3CCCCC3)CCCCC2)o1`, the fluorescence inhibition was inactive: 2.5%.

In the case of `Cc1ccc(NC2(C#N)CCN(Cc3ccccc3)CC2)cc1`, the fluorescence inhibition was inactive: 9.35%.

For `CC(=O)N(c1ccccc1)C1CCNCC1`, the fluorescence inhibition was inactive: 1.01%.

On to `COc1cc(OC)cc(C(=O)NCC2(N3CCCCC3)CCCCC2)c1`, for which the fluorescence inhibition is inactive: -3.42%.

For the compound `CN(C)c1ccc(C(=O)NCC2(N3CCCCC3)CCCCC2)cc1`, the fluorescence inhibition is inactive: 7.41%.

Consider `Cn1c(=O)[nH]cc(N(CCCl)CCCl)c1=O`, for which the fluorescence inhibition is inactive: 8.11%.

With `O=C(NCC1(N2CCCCC2)CCCCC1)c1ccco1`, the fluorescence inhibition is inactive: 6.3%.

Consider `CCN1CCC(Nc2cccc(F)c2)CC1`, for which the fluorescence inhibition is inactive: -2.08%.

Take `Cc1ccccc1NC1(C#N)CCN(Cc2ccccc2)CC1`: the fluorescence inhibition is inactive: 6.22%.

As to `O=C(O)C1(Nc2ccccc2)CCN(Cc2ccccc2)CC1`, the fluorescence inhibition was inactive: 9.34%.

For `CC(C)(C)OC(=O)N1CCC(Nc2ccccc2)CC1`, the fluorescence inhibition was inactive: 7.41%.

As for `CCCOc1ccc(C(=O)NCC2(N(C)C)CCCCC2)cc1`, the fluorescence inhibition is inactive: 7.39%.

As for `CN1CCC(Nc2ccc(F)c(Cl)c2)CC1`, the fluorescence inhibition is inactive: -0.415%.

`CCOc1ncccc1C(=O)NCC1(N2CCOCC2)CCCCC1`: the fluorescence inhibition was inactive: 6.98%.

Turning to `CN1CCC(Nc2ccc(Cl)cc2)CC1`, the fluorescence inhibition is inactive: 12.3%.

Take `COc1cccc(C(=O)N(c2cc(C)cc(C)c2)C2CCN(C(=O)OC(C)(C)C)CC2)c1`: the fluorescence inhibition is inactive: 5.83%.

For the compound `COc1cc(OC)cc(C(=O)NCC2(N3CCOCC3)CCCCC2)c1`, the fluorescence inhibition is inactive: 4.46%.

Turning to `Cc1cccc(NC2(C#N)CCN(Cc3ccccc3)CC2)c1`, the fluorescence inhibition was inactive: 10.8%.

As for `CSc1ccccc1C(=O)NCC1(N2CCCCC2)CCCCC1`, the fluorescence inhibition is inactive: 7.12%.

Consider `COc1ccc(C(=O)NCC2(N3CCCCC3)CCCCC2)c(OC)c1OC`, for which the fluorescence inhibition was inactive: -12.7%.

Regarding `CC(C)(C)OC(=O)N1CCC(N(C(=O)c2ccccc2)c2ccc(F)cc2)CC1`, the fluorescence inhibition is inactive: 13.5%.

Take `COc1ccc(C(=O)NCC2(N3CCCCC3)CCCCC2)cc1`: the fluorescence inhibition was inactive: 3.13%.

As for `O=C(NCC1(N2CCCCC2)CCCCC1)c1cccs1`, the fluorescence inhibition was inactive: -7.6%.

With `O=C(NCC1(N2CCCCC2)CCCCC1)c1ccc(=O)[nH]c1`, the fluorescence inhibition is inactive: -0.974%.

Take `COc1ccc(Cl)cc1C(=O)NCC1(N2CCOCC2)CCCCC1`: the fluorescence inhibition is inactive: -8.21%.

As for `O=C(NCC1(N2CCCCC2)CCCCC1)c1ccc(Cl)s1`, the fluorescence inhibition was inactive: 11.4%.

Take `N#CC1(Nc2ccccc2)CCN(Cc2ccccc2)CC1`: the fluorescence inhibition was inactive: -3.91%.

For `O=C(OC1CN2CCC1CC2)C1c2ccccc2Oc2ccccc21` (configuration not stated), the fluorescence inhibition is inactive: 27.7%.

As for `CCOC(=O)N1CCC(Nc2ccc(OC)cc2)CC1`, the fluorescence inhibition is inactive: 4.06%.

Turning to `Cc1cc(C)cc(N(C(=O)c2ccccc2)C2CCN(C(=O)OC(C)(C)C)CC2)c1`, the fluorescence inhibition is inactive: -2.59%.

Regarding `O=C(NCC1(N2CCCCC2)CCCCC1)c1ccc(Cl)nc1`, the fluorescence inhibition was inactive: -4.55%.

With `CCOC(=O)N1CCC(Nc2ccc(F)cc2)CC1`, the fluorescence inhibition is inactive: 5.03%.

For the compound `COc1ccc(NC2CCN(CCc3ccccc3)CC2)c(OC)c1`, the fluorescence inhibition is inactive: 11.9%.

In the case of `CCCCOc1ccc(C(=O)NCC2(N3CCOCC3)CCCCC2)cc1`, the fluorescence inhibition is inactive: 4.61%.

Turning to `O=P1(N(CCCl)CCCl)SCCCS1`, the fluorescence inhibition was inactive: 9%.

As to `O=C(NCC1(N2CCCCC2)CCCCC1)c1ccc(F)cc1`, the fluorescence inhibition was inactive: -4.13%.

Turning to `CCOc1ccc(C)cc1CN(CCCl)CCCl`, the fluorescence inhibition was inactive: -2.76%.

As for `CCOC(=O)N1CCC(Nc2cccc(C)c2)CC1`, the fluorescence inhibition is inactive: 12.3%.

Turning to `COc1cc(C(=O)NCC2(N(C)C)CCCCC2)ccc1OC(F)F`, the fluorescence inhibition was inactive: -6.19%.

`N#CC1(Nc2ccccc2)CCN(CCc2ccccc2)CC1`: the fluorescence inhibition was inactive: 3.52%.

In the case of `CCN1CCC(Nc2ccc(Cl)cc2)CC1`, the fluorescence inhibition is inactive: 3.78%.

As for `O=C(NCC1(N2CCCCC2)CCCCC1)c1cccc([N+](=O)[O-])c1`, the fluorescence inhibition was inactive: 15.3%.

For `CSc1ccc(C(=O)NCC2(N3CCOCC3)CCCCC2)cc1`, the fluorescence inhibition was inactive: 2.62%.

As for `O=C(NCC1(N2CCCCC2)CCCCC1)c1ccc(OC(F)F)cc1`, the fluorescence inhibition was inactive: 9.8%.

As to `COc1cc(C(=O)NCC2(N3CCCCC3)CCCCC2)ccc1OC(F)F`, the fluorescence inhibition was inactive: 11%.

In the case of `COc1ccc(NC2CCN(C(=O)OC(C)(C)C)CC2)cc1`, the fluorescence inhibition was inactive: 1.52%.

In the case of `CC(C)c1ccc(C(=O)NCC2(N3CCOCC3)CCCCC2)cc1`, the fluorescence inhibition was inactive: 13.3%.

Turning to `CN1CCN(CCOC(=O)C(O)(c2ccccc2)c2ccccc2)CC1`, the fluorescence inhibition was inactive: 5.39%.

As to `O=C(NCC1(N2CCCCC2)CCCCC1)c1cccc(C(F)(F)F)c1`, the fluorescence inhibition was inactive: -0.529%.

On to `O=C(NCC1(N2CCOCC2)CCCCC1)c1cc(F)c(F)cc1Cl`, for which the fluorescence inhibition is inactive: -0.803%.

As to `COc1cc(OC)c(C(=O)NCC2(N(C)C)CCCCC2)cc1OC`, the fluorescence inhibition is inactive: -0.881%.

`CC(C)c1ccc(NC2CCN(C(=O)OC(C)(C)C)CC2)cc1`: the fluorescence inhibition is inactive: 8.27%.

For `CN(C)c1cccc(C(=O)NCC2(N3CCCCC3)CCCCC2)c1`, the fluorescence inhibition was inactive: 6.77%.

Regarding `COc1ccc(CN(CCCl)CCCl)cc1Cl`, the fluorescence inhibition is inactive: 15.9%.

In the case of `CCCOc1ccc(C(=O)NCC2(N(C)C)CCCCC2)cc1OC`, the fluorescence inhibition is inactive: 2.61%.

For `O=C(NCC1(N2CCCCC2)CCCCC1)c1cncc(Br)c1`, the fluorescence inhibition was inactive: -6.7%.

Values taken from PubChem BioAssay AID1159583 (ICCB-Longwood Screening Facility, Harvard Medical School, 2016).
